A mixed list of measured activities; the numbers were collected in NIAID ChemDB.

All rows: whole-cell or culture tests; species: HIV-1

Rows are shuffled and stem from different studies.

SMILES	cells	changes	measure	read by	strain	result
CCCc1c(O)cccc1C(=O)N[C@@H](Cc1ccccc1)[C@H](O)C(=O)N1C[C@@H](Cl)C[C@H]1C(=O)NC(C)(C)C	CEM	-	EC90	-	IIIB	0.23 µM
COc1ccc(CCNc2nc(NC(=S)Nc3ccc(Cl)cc3)nc(Oc3cc(=O)oc4ccccc34)n2)cc1OC	MT-4	-	EC50	MTT	IIIB	>40.83 µg/mL
Cc1c(F)cccc1C(=O)N[C@@H](Cc1ccccc1)[C@H](O)C(=O)N1C[C@@H](Cl)C[C@H]1C(=O)NC(C)(C)C	CEM	-	EC50	-	IIIB	>0.5 µM
Cc1cn([C@H]2C[C@H](N=[N+]=[N-])[C@@H](CO)O2)c(=O)[nH]c1=O	PBMC	-	EC50	-	LAV	0.004 µg/mL
Cc1c(CBr)n2c(C[N+](C)(C)C)c(C)c(=O)n2c1=O.[Br-]	H9	-	EC50	p24	IIIB	~300 µM
CC(C)CN(C[C@@H](O)[C@H](Cc1ccccc1)NC(=O)O[C@H]1CCOC1)S(=O)(=O)c1ccc(N)cc1	PBMC	-	EC50	-	ERS104pre	0.028 µM
Cc1cn([C@H]2C[C@H](N=[N+]=[N-])[C@@H](CO)O2)c(=O)[nH]c1=O	MT-4	-	EC50	cytopathic effect / MTT	IIIB	0.0024 µM
Nc1ccn([C@H]2CC[C@@H](CO)O2)c(=O)n1	CEM + CEM-SS	-	EC50	cytopathic effect / MTT	IIIB	0.028 µM
C[C@]12CCC(=O)C=C1CC[C@@H]1[C@@H]2[C@@H](O)C[C@@]2(C)[C@H]1CC[C@]2(O)C(=O)COP(=O)(O)O	PBMC	-	EC30	RT activity	BRU	~5 µg/mL
Clc1nc(Cl)c2[nH]cnc2n1	CD4+HELA + HeLa	-	EC50	p24	-	2.2 µM
Nc1ccn([C@H]2CC[C@@H](CO)O2)c(=O)n1	CEM + CEM-SS	-	EC50	cytopathic effect	RF	0.039 µM
O=c1[nH]cc(N=Nc2ccc(S(=O)(=O)Nc3nccs3)cc2)cc1O	CEM + CEM-SS	-	EC50	cytopathic effect / XTT	RF	192 µM
CN1CCN(C2c3nnc(-c4ccccc4)n3-c3ccccc3-n3c(-c4ccccc4)nnc32)CC1	MT-4	-	EC50	cytopathic effect / MTT	IIIB	>126 µM
CCC[C@@H](c1ccc(C(F)(F)F)cc1)N1CCN(C2(C)CCN(C(=O)c3c(C)ncnc3C)CC2)C[C@@H]1C	PBMC	-	EC50	-	JRFL Clinical isolates	<0.00001 µM
Cc1cn([C@H]2C[C@H](N=[N+]=[N-])[C@@H](CO)O2)c(=O)[nH]c1=O	MT-4	-	EC50	cytopathic effect / MTT	IIIB	0.0007 µg/mL
CCC(C1=C(O)CC(CCC2CC2)(CCC2CC2)OC1=O)c1cccc(NS(=O)(=O)c2ccc(C#N)cn2)c1	H9	-	EC50	-	IIIB	0.3 µM
CC(C)(C)NC(=O)[C@@H]1CN(C(C)(C)c2cc3cnccc3o2)CCN1C[C@@H](O)C[C@@H](Cc1ccccc1)C(=O)N[C@H]1c2ccccc2OC[C@H]1O	-	PR-L10I S37N R41K M46I I54V I62V L63P A71V V77I V82A L90M I93L	EC50	-	Q-60C(PR-L10I S37N R41K M46I I54V I62V L63P A71V V77I V82A L90M I93L)	<0.25 µM
O=C(O)CSc1ccc2[nH]c3ccccc3c(=O)c2c1	MT-4	-	EC50	trypan blue	IIIB	<100 µg/mL
c1cc(CN2CCCNCCNCCCNCC2)ccc1CN1CCCNCCNCCCNCC1	MT-4	-	EC50	-	NL4-3	24.7 nM
Cc1cn([C@@H]2O[C@H](CO)C[C@@H]2F)c(=O)[nH]c1=O	CEM	-	EC50	p24	-	>100 µM
Cc1ccnc2c1NC(=O)c1cccnc1N2C1CC1	MT-4	-	EC50	MTT	IIIB	0.01 µg/mL
CC(C)(C)NC(=O)[C@@H]1C[C@H](Cl)CN1C(=O)[C@@H](O)[C@H](Cc1ccccc1)NC(=O)OC1CCOC1	CEM	-	EC90	-	IIIB	4.8 µM
O=C(N[C@H](C(=O)N[C@@H](Cc1ccc(OCc2ccccc2)cc1)C(=O)C(F)(F)C(=O)NCc1ccccc1)C1CCCC1)OCc1ccccc1	MT-4	-	EC50	cytopathic effect / MTT	RF	3 µM
CCCC1(CCc2ccccc2)CC(O)=C(C(c2cccc(NS(=O)(=O)c3cn(C)cn3)c2)C(C)(C)C)C(=O)O1	H9	-	EC90	-	IIIB	0.3 µM
c1ccc2c(c1)-n1c(nnc1-c1ccncc1)Cc1nnc(-c3ccncc3)n1-2	MT-4	-	EC50	cytopathic effect / MTT	IIIB	>200 µM
CCOP(=O)(C[C@@H]1C[C@H](n2cc(C)c(=O)[nH]c2=O)ON1C)OCC	CEM	-	EC50	GFP	-	>1000 µM
CC(C)(C)NC(=O)[C@@H]1CCCN1C(=O)[C@@H](O)[C@@H]1Cc2ccc(cc2)OCCCOc2cc3ccccc3cc2C(=O)N[C@@H](CC(N)=O)C(=O)N1	MT-2	-	EC50	p24	RF	0.076 µM
CC(C)(C)NC(=O)[C@@H]1C[C@@H]2CCCC[C@@H]2CN1C[C@@H](O)[C@H](Cc1ccccc1)NC(=O)[C@H](CC(N)=O)NC(=O)c1ccc2ccccc2n1	MT-4	-	EC50	-	HXB2 WT	0.014 µM
Cc1cn([C@H]2C[C@H](N=[N+]=[N-])[C@@H](CO)O2)c(=O)[nH]c1=O	MT-4	-	EC50	cytopathic effect / MTT	NL4 Suc-HSA-resistant	0.007 µg/mL
Cc1ccnc2c1NC(=O)c1cccnc1N2C1CC1	MT-4	RT-K103N Y181C	EC50	cytopathic effect / MTT	-	>100 µM
CCCC1(CCC)CC(O)=C(C(CC)c2cccc(NS(=O)(=O)c3ccc(C(F)(F)F)cn3)c2)C(=O)O1	H9	-	EC50	-	IIIB	0.16 µM
CCCCC[C@H](O)/C=C/[C@H]1C=CC(=O)[C@@H]1CCCCCCC(=O)O	C8166	-	EC50	syncytia	IIIB	~2 µM
CN(C)[C@@H]1C(=O)C(C(N)=O)=C(O)[C@@]2(O)C(=O)C3=C(O)c4c(O)cccc4[C@@](C)(O)[C@H]3[C@H](O)[C@@H]12	CEM + CEM-SS	-	EC50	cytopathic effect / XTT	RF	>64 µM
COc1ccc(CCNc2nc(NC(=S)Nc3ccc(C)cc3)nc(Oc3cc(=O)oc4ccccc34)n2)cc1OC	-	RT-resistant RES056 (K103N + Y181C)	EC50	MTT	RES056	>53.66 µg/mL
CCC(C1=C(O)CC(CCc2ccccc2)(CCc2ccccc2)OC1=O)c1cccc(NS(=O)(=O)c2ccc(C#N)cn2)c1	H9	-	EC90	-	IIIB	0.54 µM
CCOc1ccc(NC(=O)Nc2nc(NCCc3ccc(OC)c(OC)c3)nc(Oc3cc(=O)oc4ccccc34)n2)cc1	MT-4	-	EC50	MTT	IIIB	>30.15 µg/mL
CC(C)=CCN1Cc2cc(Cl)cc3[nH]c(=S)n(c23)C[C@@H]1C	MT-4	-	EC50	cytopathic effect / MTT	IIIB	0.056 µg/mL
Cc1cn([C@H]2C[C@H](N=[N+]=[N-])[C@@H](CO)O2)c(=O)[nH]c1=O	MT-4	-	EC50	p24	IIIB	0.007 µM
CCCC1(CCc2ccccc2)CC(O)=C(C(c2cccc(NS(=O)(=O)c3ccc(C#N)cn3)c2)C2CC2)C(=O)O1	H9	-	EC50	-	IIIB	0.17 µM
CC1c2n[nH]c(=O)n2-c2ccccc2-n2c1n[nH]c2=O	MT-4	-	EC50	cytopathic effect / MTT	IIIB	>200 µM
CCc1cc(NCc2nc3c(Cl)ccc(Cl)c3o2)c(=O)[nH]c1C	H9	-	EC95	p24	IIIB	0.1 µM
Cc1cc(SC2=C(O)C[C@](CCc3ccc(N)cc3)(C(C)C)OC2=O)c(C(C)(C)C)cc1CO	MT-4	-	EC50	cytopathic effect / MTT	IIIB	>250 µg/mL
O=C(O)/C(O)=C/c1ccc(Oc2ccccc2)cn1	MT-4	-	EC50	cytopathic effect / MTT	IIIB	78 µM
CCC[C@]1(CCc2ccccc2)CC(O)=C([C@H](CC)c2cccc(NS(=O)(=O)c3ccc(C(F)(F)F)cn3)c2)C(=O)O1	H9	-	EC90	-	IIIB	0.84 µM
Nc1ccn([C@H]2CC[C@@H](CO)O2)c(=O)n1	MT-4	-	EC50	cytopathic effect / MTT	IIIB	0.0034 µg/mL
COc1ccc(CCNc2nc(NC(=S)Nc3ccc(Br)cc3)nc(Oc3cc(=O)oc4ccccc34)n2)cc1OC	MT-4	-	EC50	MTT	IIIB	>62.7 µg/mL
O=C(Nc1ccccc1-c1nn(CN2CCNCC2)c(=S)n(CN2CCNCC2)c1=O)C(F)(F)F	CEM	-	EC50	cytopathic effect / XTT	RF	11.3 µg/mL
CCCCCC(=O)c1c(O)cc2c(c1O)C(=O)c1c(O)cc(O)cc1C2=O	CEM + CEM-SS	-	EC50	cytopathic effect / XTT	RF	>65 µM
CC(C)=CCN1Cc2cc(Cl)cc3[nH]c(=S)n(c23)C[C@@H]1C	MT-4	-	EC95	-	-	0.8 µM
CCCC1(CCC)CC(O)=C(C(CC)c2cccc(NS(=O)(=O)c3ccc(C#N)cn3)c2)C(=O)O1	H9	-	EC50	-	IIIB	0.49 µM
O=C(Nc1ccccc1-c1nn(CO)c(=S)n(CO)c1=O)C(F)(F)F	CEM	-	EC50	cytopathic effect / XTT	RF	>62.5 µg/mL
CSC[C@H](NC(=O)COc1cccc2cnccc12)C(=O)N[C@@H](Cc1ccccc1)[C@H](O)C(=O)N1CSC(C)(C)[C@H]1C(=O)NC(C)(C)C	ATH8	-	EC50	cytopathic effect	MN	0.03 µM
Cc1cn([C@H]2C=C[C@@H](CO)O2)c(=O)[nH]c1=O	MAGI (CCR5) + MAGI	RT-K65R	EC50	β-galactosidase	HXB2	7.8 µM
Nc1c(Br)cc2c([nH]c(=O)c3cc(Br)ccc32)c1Br	CEM + CEM-SS	-	EC50	cytopathic effect / XTT	RF	>39 µM
Cc1c(O)cccc1C(=O)N[C@@H](Cc1ccccc1)[C@H](O)C(=O)N1C[C@@H](Cl)C[C@H]1C(=O)NC(C)(C)C	CEM	-	EC50	-	IIIB	<0.11 µM
CC12CCC[C@@]3(COC1=O)C1CC[C@@H]4C[C@@]1(CC[C@H]23)C[C@@]4(C)O	H9	-	EC50	p24	IIIB	6 µM
Nc1ncnc2c1ncn2[C@@H]1O[C@@H]2[C@H](O)CO[C@]2(CO)[C@H]1O	MT-4	-	EC50	-	-	>100 µM
CCc1cc(NCc2nc3c(C)ccc(C)c3o2)c(=O)[nH]c1C	PBL	-	EC95	p24	IIIB	0.1 µM
Nc1ccn([C@H]2CC[C@@H](CO)O2)c(=O)n1	MT-2	RT-T69G	EC50	p24	-	0.282 µM
Nc1ncnc2c1ncn2CCOCP(=O)(O)O	CBMC	RT-K65R	EC50	p24	HXB2D (RT-K65R)	3.5 ± 0.5 µM
Cc1ccnc(NS(=O)(=O)c2ccc(N=Nc3cc4ccccc4c(C(=O)O)c3O)cc2)n1	CEM + CEM-SS	-	EC50	cytopathic effect / XTT	RF	>10 µM
CN(C)c1ccc(Nc2c3ccc(NC(=O)CCN4CCCC4)cc3nc3cc(NC(=O)CCN4CCCC4)ccc23)cc1	HeLaP4	-	EC50	β-galactosidase	-	8 µM
Cc1cn([C@@H]2O[C@H](CO)C=C2F)c(=O)[nH]c1=O	CEM	-	EC50	p24	-	10–100 µM
Cc1cn([C@H]2C[C@H](N=[N+]=[N-])[C@@H](CO)O2)c(=O)[nH]c1=O	MT-4	-	EC50	-	HXB2 WT	0.016 µM
Cc1nnc2n1-c1ccccc1-n1c(C)nnc1C2C	MT-4	-	EC50	cytopathic effect / MTT	IIIB	>200 µM
Cc1c(O)cccc1C(=O)N[C@@H](CSc1ccccc1)[C@H](O)CN1C[C@H]2CCCC[C@H]2C[C@H]1C(=O)NC(C)(C)C	MT-4	-	EC50	-	HXB2 WT	0.0272 µM
CCOC(=O)CSc1nnc(-c2ccccc2NC(=O)C(F)(F)F)c(=O)[nH]1	CEM	-	EC50	cytopathic effect / XTT	RF	>62.5 µg/mL

For reference, 4 entries again:

Cc1nnc2n1-c1ccccc1-n1c(C)nnc1C2C ; cells: MT-4 ; measure: EC50 ; read by: cytopathic effect / MTT ; strain: IIIB ; result: >200 µM
CCOc1ccc(NC(=O)Nc2nc(NCCc3ccc(OC)c(OC)c3)nc(Oc3cc(=O)oc4ccccc34)n2)cc1 ; cells: MT-4 ; measure: EC50 ; read by: MTT ; strain: IIIB ; result: >30.15 µg/mL
O=C(N[C@H](C(=O)N[C@@H](Cc1ccc(OCc2ccccc2)cc1)C(=O)C(F)(F)C(=O)NCc1ccccc1)C1CCCC1)OCc1ccccc1 ; cells: MT-4 ; measure: EC50 ; read by: cytopathic effect / MTT ; strain: RF ; result: 3 µM
Cc1cn([C@H]2C[C@H](N=[N+]=[N-])[C@@H](CO)O2)c(=O)[nH]c1=O ; cells: MT-4 ; measure: EC50 ; read by: cytopathic effect / MTT ; strain: NL4 Suc-HSA-resistant ; result: 0.007 µg/mL

Blank or dashed fields: not listed here. ECn: concentration that inhibits the pathogen or its effect by n%. a–b is a range or a potency band.